pKd: −log10 of the molar value.
Experiments:
[1] = biological target: MERS-CoV M^pro E169A mutant (MERS-CoV)
[2] = biological target: MERS-CoV M^pro M298R mutant (MERS-CoV)
[3] = biological target: MERS-CoV M^pro T126S mutant (MERS-CoV)
[4] = biological target: MERS-CoV M^pro V4R mutant (MERS-CoV)

Substance: MERS-CoV M^pro E169A mutant
- stoichiometry N [1]: 8

Substance: MERS-CoV M^pro M298R mutant
- stoichiometry N [2]: 2

Substance: MERS-CoV M^pro T126S mutant
- pKd [3]: 4.47

Substance: MERS-CoV M^pro V4R mutant
- pKd [4]: 4.64
